Assay results taken from ChEMBL document CHEMBL1275243 (2010).

Experiments:
[1] = test system: Bacillus anthracis; assay: Antimicrobial activity against Bacillus anthracis 240 assessed as change in fluorescence threshold cycle at 1 ug/ml after 4 hrs by real-time PCR viability assay relative to control
[2] = test system: Bacillus anthracis; assay: Antimicrobial activity against Bacillus anthracis A0188 assessed as change in fluorescence threshold cycle at 0.12 ug/ml after 4 hrs by real-time PCR viability assay relative to control
[3] = test system: Bacillus anthracis; assay: Antimicrobial activity against Bacillus anthracis A03768 assessed as change in fluorescence threshold cycle at 4 ug/ml after 4 hrs by real-time PCR viability assay relative to control
[4] = test system: Bacillus anthracis; assay: Antimicrobial activity against Bacillus anthracis A0102 assessed as change in fluorescence threshold cycle at 16 ug/ml after 4 hrs by real-time PCR viability assay relative to control
[5] = test system: Bacillus anthracis; assay: Antimicrobial activity against Bacillus anthracis A0465 assessed as change in fluorescence threshold cycle at 1 ug/ml after 4 hrs by real-time PCR viability assay relative to control
[6] = test system: Bacillus anthracis; assay: Antimicrobial activity against Bacillus anthracis 240 assessed as change in fluorescence threshold cycle at 0.25 ug/ml after 4 hrs by real-time PCR viability assay relative to control
[7] = test system: Bacillus anthracis; assay: Antimicrobial activity against Bacillus anthracis A0264 assessed as change in fluorescence threshold cycle at 4 ug/ml after 4 hrs by real-time PCR viability assay relative to control
[8] = test system: Bacillus anthracis; assay: Antimicrobial activity against Bacillus anthracis A0264 assessed as change in fluorescence threshold cycle at 16 ug/ml after 4 hrs by real-time PCR viability assay relative to control
[9] = test system: Bacillus anthracis; assay: Antimicrobial activity against pXO1-positive and pXO2 negative Bacillus anthracis 34F2 assessed as change in fluorescence threshold cycle at 0.06 ug/ml after 4 hrs by real-time PCR viability assay relative to control
[10] = test system: Bacillus anthracis; assay: Antimicrobial activity against Bacillus anthracis A0419 assessed as change in fluorescence threshold cycle at 0.5 ug/ml after 4 hrs by real-time PCR viability assay relative to control
[11] = test system: Bacillus anthracis; assay: Antimicrobial activity against Bacillus anthracis A0248 assessed as change in fluorescence threshold cycle at 1 ug/ml after 4 hrs by real-time PCR viability assay relative to control
[12] = test system: Bacillus anthracis; assay: Antimicrobial activity against Bacillus anthracis A03768 assessed as change in fluorescence threshold cycle at 2 ug/ml after 4 hrs by real-time PCR viability assay relative to control
[13] = test system: Bacillus anthracis; assay: Antimicrobial activity against Bacillus anthracis A0149 assessed as change in fluorescence threshold cycle at 0.25 ug/ml after 4 hrs by real-time PCR viability assay relative to control
[14] = test system: Bacillus anthracis; assay: Antimicrobial activity against pXO1-positive and pXO2 negative Bacillus anthracis 34F2 assessed as change in fluorescence threshold cycle at 2 ug/ml after 4 hrs by real-time PCR viability assay relative to control
[15] = test system: Bacillus anthracis; assay: Antimicrobial activity against Bacillus anthracis A0465 assessed as change in fluorescence threshold cycle at 8 ug/ml after 4 hrs by real-time PCR viability assay relative to control
[16] = test system: Bacillus anthracis; assay: Antimicrobial activity against Bacillus anthracis A0465 assessed as change in fluorescence threshold cycle at 16 ug/ml after 4 hrs by real-time PCR viability assay relative to control
[17] = test system: Bacillus anthracis; assay: Antimicrobial activity against Bacillus anthracis A0149 assessed as change in fluorescence threshold cycle at 0.06 ug/ml after 4 hrs by real-time PCR viability assay relative to control
[18] = test system: Bacillus anthracis; assay: Antimicrobial activity against pXO1-positive and pXO2 negative Bacillus anthracis 34F2 assessed as change in fluorescence threshold cycle at 0.5 ug/ml after 4 hrs by real-time PCR viability assay relative to control
[19] = test system: Bacillus anthracis; assay: Antimicrobial activity against pXO1-positive and pXO2 negative Bacillus anthracis 34F2 assessed as change in fluorescence threshold cycle at 0.12 ug/ml after 4 hrs by real-time PCR viability assay relative to control
[20] = test system: Bacillus anthracis; assay: Antimicrobial activity against Bacillus anthracis A0462 assessed as change in fluorescence threshold cycle at 8 ug/ml after 4 hrs by real-time PCR viability assay relative to control
[21] = test system: Bacillus anthracis; assay: Antimicrobial activity against Bacillus anthracis A0293 assessed as change in fluorescence threshold cycle at 0.25 ug/ml after 4 hrs by real-time PCR viability assay relative to control
[22] = test system: Bacillus anthracis; assay: Antimicrobial activity against Bacillus anthracis 240 assessed as change in fluorescence threshold cycle at 0.06 ug/ml after 4 hrs by real-time PCR viability assay relative to control
[23] = test system: Bacillus anthracis; assay: Antimicrobial activity against Bacillus anthracis A0248 assessed as change in fluorescence threshold cycle at 2 ug/ml after 4 hrs by real-time PCR viability assay relative to control
[24] = test system: Bacillus anthracis; assay: Antimicrobial activity against Bacillus anthracis A0149 assessed as change in fluorescence threshold cycle at 4 ug/ml after 4 hrs by real-time PCR viability assay relative to control
[25] = test system: Bacillus anthracis; assay: Antimicrobial activity against Bacillus anthracis A0462 assessed as change in fluorescence threshold cycle at 1 ug/ml after 4 hrs by real-time PCR viability assay relative to control
[26] = test system: Bacillus anthracis; assay: Antimicrobial activity against Bacillus anthracis A03768 assessed as change in fluorescence threshold cycle at 0.25 ug/ml after 4 hrs by real-time PCR viability assay relative to control
[27] = test system: Bacillus anthracis; assay: Antimicrobial activity against pXO1-positive and pXO2 negative Bacillus anthracis 34F2 assessed as change in fluorescence threshold cycle at 1 ug/ml after 4 hrs by real-time PCR viability assay relative to control
[28] = test system: Bacillus anthracis; assay: Antimicrobial activity against Bacillus anthracis A03768 assessed as change in fluorescence threshold cycle at 0.12 ug/ml after 4 hrs by real-time PCR viability assay relative to control

Row | SMILES | deltaCT [1] | deltaCT [2] | deltaCT [3] | deltaCT [4] | deltaCT [5] | deltaCT [6] | deltaCT [7] | deltaCT [8] | deltaCT [9] | deltaCT [10] | deltaCT [11] | deltaCT [12] | deltaCT [13] | deltaCT [14] | deltaCT [15] | deltaCT [16] | deltaCT [17] | deltaCT [18] | deltaCT [19] | deltaCT [20] | further results
1 | O=C(O)c1cn(C2CC2)c2cc(N3CCNCC3)c(F)cc2c1=O [CIPROFLOXACIN] | 0.72 | 8.03 | 7.41 | 8.74 | 8.24 | 7.06 | 6.94 | 8.06 | 7.17 | 8.9 | 8.75 | 4.18 | 7.67 | 7.26 | 0.86 | 8.64 | 8.71 | 3.2 | 6.32 | 0.31 | deltaCT [21]: 7.83; deltaCT [22]: 6.7; deltaCT [23]: 6.69; deltaCT [24]: 6.16; deltaCT [25]: 8.48; deltaCT [26]: 3.14; deltaCT [27]: 8.53; deltaCT [28]: 8.15
2 | C[C@H]1c2cccc(O)c2C(=O)C2=C(O)[C@]3(O)C(=O)C(C(N)=O)=C(O)[C@@H](N(C)C)[C@@H]3[C@@H](O)[C@@H]21.O [DOXYCYCLINE] | 6.95 | 6.8 | 8.1 | 0.42 | 7.71 | 6.32 | 7.19 | 5.45 | 7.81 | 6.87 | 7.98 | 8.08 | 5.22 | 8.82 | 7.95 | 0.45 | 7.2 | 7.48 | 7.69 | 7.91 | deltaCT [21]: 6.01; deltaCT [22]: 7.07; deltaCT [23]: 7.29; deltaCT [24]: 7.02; deltaCT [25]: 8.58; deltaCT [26]: 6; deltaCT [27]: 8.32; deltaCT [28]: 7.57
